Measured values from several laboratories, pooled; numbers as filed in NIAID ChemDB.

Shared fields: growth or infection tests; species: Herpes simplex virus 1; read-out: EC50

Conditions beyond the fields shown may differ between rows.

SMILES,strain or isolate,method,result
O=c1[nH]c(=O)n([C@H]2S[C@H](CO)[C@@H](O)[C@@H]2F)cc1CCO,VR,cytopathic effect,>27 µg/mL
CCCCCCCCc1cn([C@@H]2O[C@H](COP(=O)(O)O)[C@@H](O)[C@H]2O)c(=O)nc1N,KOS,,>400 µg/mL
[N-]=[N+]=N[C@H]1C[C@@H](CO)S[C@@H]1n1cnc2c(N)ncnc21,,,>100 µg/mL
O=C(NCc1ccc(Cl)cc1)c1c[nH]c2c(F)cccc2c1=O,F,plaque count,18 µM
Fc1ccc(-c2nn3c(c2-c2ccnc(NC4CCCC4)n2)CC=[N+]=C3N2CCCC2)cc1,,hybridisation,2 µM
Nc1nc(F)nc2c1ncn2[C@H]1S[C@H](CO)[C@@H](O)[C@@H]1F,VR,cytopathic effect,>27 µg/mL
Nc1nc2c(ncn2[C@@H]2C=C[C@H](CO)[C@@H](O)C2)c(=O)[nH]1,KOS (TK-),,0.38 µg/mL
O=C(NCc1ccc(Cl)cc1)c1c[nH]c2c(F)cccc2c1=O,ARAA9 (N961K (V)),,18 µM
COc1ccc(-c2cn3c(=O)c4ncn(COC(CO)CO)c4nc3[nH]2)cc1,McIntyre,cytopathic effect,0.005 µg/mL
[N-]=[N+]=N[C@H]1C[C@H](CO)S[C@H]1n1cnc2c(Cl)ncnc21,,,>100 µg/mL
Nc1nc2c(ncn2C[C@]2(CO)C[C@H]2CO)c(=O)[nH]1,,plaque count,0.01–0.1 µM
CCCCc1cn([C@@H]2O[C@H](COP(=O)(O)O)[C@@H](O)[C@H]2O)c(=O)nc1N,F,,>400 µg/mL
Nc1nc2c(ncn2COC(CO)CO)c(=O)[nH]1,97-1716,PCR,3.9 µM
CC(C)c1cn([C@@H]2O[C@H](COP(=O)(O)O)[C@@H](O)[C@H]2O)c(=O)nc1N,KOS,,>400 µg/mL
Nc1nc2c(ncn2[C@@H]2C[C@H](CO)[C@H]2CO)c(=O)[nH]1,OST (TK-),,18 µg/mL
COc1ccccc1-c1nc2ccccc2n1C(=O)c1ccncc1,KOS,,>20 µg/mL
Cc1[nH]c2nc3c(ncn3COCCO[Si](C)(C)C(C)(C)C)c(=O)n2c1C(c1ccccc1)(c1ccccc1)c1ccccc1,VMW 1837,cytopathic effect,10 µg/mL
O=c1[nH]c(=O)n(COCCO)cc1Br,,plaque count,>100 µM
Nc1nc(Cl)nc2c1ncn2[C@@H]1S[C@H](CO)[C@@H](O)[C@@H]1F,VR,cytopathic effect,1 µg/mL
Nc1nc2c(ncn2[C@@H]2CO[C@H](CO)[C@@H](O)C2)c(=O)[nH]1,,plaque count,0.1–1 µM
Nc1ccn([C@@H]2OCC(CO)=C2F)c(=O)n1,,,>100 µg/mL
O=c1c2ncn(COC(CO)CO)c2nc2[nH]c(-c3ccccc3)cn12,VMW 1837,cytopathic effect,0.5 µg/mL
Nc1nc2c(ncn2[C@@H]2S[C@H](CO)[C@@H](O)[C@@H]2F)c(=O)[nH]1,VR,cytopathic effect,0.0041 µg/mL
O=C(c1ccccc1Br)n1c(-c2ccc(O)cc2)nc2ccccc21,KOS,,>100 µg/mL
O=c1c2ncn(COC(CO)CO)c2[nH]c2nccn12,KOS,cytopathic effect,0.7 µg/mL
CCCCNc1nccc(-c2c(-c3ccc(F)cc3)nn3c(NC4CCCC4)ncnc23)n1,,hybridisation,1 µM
O=c1[nH]c(=O)n(COCCO)cc1F,,plaque count,>100 µM
CC(=O)OCCOCn1cnc2c(=O)n3cc(-c4ccc5ccccc5c4)[nH]c3nc21,F,cytopathic effect,>16 µg/mL
[N-]=[N+]=N[C@@H]1C[C@@H](CO)S[C@@H]1n1ccc(=O)[nH]c1=O,,,>100 µg/mL
COCCNC1=[N+]=CCc2c(-c3ccnc(NC4CCCC4)n3)c(-c3cccc(Cl)c3)nn21,,hybridisation,0.3 µM
O=C(O)c1ccccc1-c1nc2ccccc2n1C(=O)c1ccncc1,KOS,,>100 µg/mL
CC(C)c1cn([C@@H]2OC3COP(=O)(O)OC3[C@H]2O)c(=O)nc1N,McIntyre,,>400 µg/mL
O=C(c1ccc([N+](=O)[O-])cc1)n1c(-c2ccc(O)cc2)nc2ccccc21,KOS,,>100 µg/mL
Nc1nc(N)c2ncn([C@@H]3S[C@H](CO)[C@@H](O)[C@@H]3F)c2n1,VR,cytopathic effect,0.0041 µg/mL
NS(=O)(=O)OCCOCn1ccc(=O)[nH]c1=O,,plaque count,>100 µM
Nc1nc(=O)n([C@@H]2S[C@H](CO)[C@@H](O)[C@@H]2F)cc1I,VR,cytopathic effect,0.037 µg/mL
Nc1ccn([C@@H]2CC[C@H](CO)O2)c(=S)n1,,,>100 µM
O=[N+]([O-])c1ccccc1S(=O)(=O)n1c(CCc2ccccn2)nc2cc(Cl)c(Cl)cc21,,plaque count,>2 µg/mL
O=c1[nH]c(=O)n([C@@H]2S[C@H](CO)[C@@H](O)[C@@H]2F)cc1I,VR,cytopathic effect,0.037 µg/mL
Nc1nccc2c1ncn2[C@@H]1C[C@H](CO)[C@@H](O)[C@H]1O,TK-/B2006,cytopathic effect,40 µg/mL
O=C(NCc1ccc(Cl)cc1)c1c[nH]c2c(F)cc(CCCO)cc2c1=O,PAAS (R841S (III)),,1.1 µM
CCc1cn([C@@H]2O[C@H](COP(=O)(O)O)[C@@H](O)[C@H]2O)c(=O)nc1N,McIntyre,,>400 µg/mL
Nc1nc2c(ncn2CCC(CO)CO)c(=O)[nH]1,OST (TK-),,231 µg/mL
Nc1ncn([C@@H]2CC[C@H](CO)O2)c(=O)n1,,,>100 µM
CNc1ncnc2c1ncn2[C@@H]1S[C@H](CO)C[C@@H]1N=[N+]=[N-],,,>100 µg/mL
CCc1cn([C@H]2S[C@H](CO)[C@@H](O)[C@@H]2F)c(=O)[nH]c1=O,VR,cytopathic effect,1 µg/mL
Nc1ncn([C@H]2CC[C@H](CO)O2)c(=O)n1,,,>100 µM

The last 6 rows once more:

SMILES | strain or isolate | method | result
CCc1cn([C@@H]2O[C@H](COP(=O)(O)O)[C@@H](O)[C@H]2O)c(=O)nc1N | McIntyre |  | >400 µg/mL
Nc1nc2c(ncn2CCC(CO)CO)c(=O)[nH]1 | OST (TK-) |  | 231 µg/mL
Nc1ncn([C@@H]2CC[C@H](CO)O2)c(=O)n1 |  |  | >100 µM
CNc1ncnc2c1ncn2[C@@H]1S[C@H](CO)C[C@@H]1N=[N+]=[N-] |  |  | >100 µg/mL
CCc1cn([C@H]2S[C@H](CO)[C@@H](O)[C@@H]2F)c(=O)[nH]c1=O | VR | cytopathic effect | 1 µg/mL
Nc1ncn([C@H]2CC[C@H](CO)O2)c(=O)n1 |  |  | >100 µM

An empty or dashed field is not shown. ECn: concentration that inhibits the pathogen or its effect by n%. Two numbers with a dash give a range or band.